This note sets out measurements from patent US7888363B2, “Viral polymerase inhibitors” (Boehringer Ingelheim International GmbH, priority 2003, dated 2011).

By UniProt entry, the sequences of proteins in these tests, tags left out. Residues count along the entry.
UniProt P26663, 2420-3010 limits assumed: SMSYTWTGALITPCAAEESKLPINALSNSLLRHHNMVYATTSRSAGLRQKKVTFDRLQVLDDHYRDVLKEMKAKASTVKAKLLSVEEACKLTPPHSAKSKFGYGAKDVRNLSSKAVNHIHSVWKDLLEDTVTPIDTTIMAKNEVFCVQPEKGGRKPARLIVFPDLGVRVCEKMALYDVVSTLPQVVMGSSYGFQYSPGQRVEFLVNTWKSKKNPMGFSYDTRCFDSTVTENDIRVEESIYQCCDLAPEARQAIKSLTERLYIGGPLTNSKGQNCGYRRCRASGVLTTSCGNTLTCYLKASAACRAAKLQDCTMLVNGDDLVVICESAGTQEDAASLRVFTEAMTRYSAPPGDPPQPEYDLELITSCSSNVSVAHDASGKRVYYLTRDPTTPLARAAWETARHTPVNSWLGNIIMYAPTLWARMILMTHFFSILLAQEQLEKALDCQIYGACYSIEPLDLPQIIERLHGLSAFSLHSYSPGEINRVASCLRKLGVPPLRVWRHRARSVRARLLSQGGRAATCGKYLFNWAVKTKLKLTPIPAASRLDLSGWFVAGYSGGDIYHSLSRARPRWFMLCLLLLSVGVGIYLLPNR

The target of the assay is hepatitis C virus RNA dependant polymerase (NS5B) (Hepatitis C virus genotype 1b, UniProt P26663). The assay can be described thus: Inhibition of NS5B RNA dependent RNA polymerase activity. The class given is biochemical. The protocol: A suitable assay is described in the examples.
Inhibition of NS5B RNA Dependent RNA Polymerase Activity
The compounds of the invention were tested for inhibitory activity against the hepatitis C virus RNA dependant polymerase (NS5B), according to protocol described in WO 03/010141

A value given as a limit tells only on which side of the number the result lay.

In the case of `CC(C)NC(=O)Cn1c(-c2ccccc2)c(C2CCCCC2)c2ccc(C(=O)O)cc21`, where the note is “Table 1, HCV NS5B polymerase”, the IC50 – broadly, the concentration needed to halve the response being measured – was 200 to 1000 nM.
Consider `Cc1nn(C)c(C)c1S(=O)(=O)NC(=O)c1ccc2c(C3CCCCC3)c(-c3ccoc3)n(CC(=O)N3CCOCC3)c2c1`, for which, under “Table 2, HCV NS5B polymerase”, the IC50 was less than 200 nM.
For the setting “Table 1, HCV NS5B polymerase”, `CC(C)NC(=O)Cn1c(-c2ccsc2)c(C2CCCCC2)c2ccc(C(=O)O)cc21` came in with an IC50 of 200 to 1000 nM.
Still for that read-out and setting: with `CC(C)(NC(=O)Cn1c(-c2ccoc2)c(C2CCCCC2)c2ccc(C(=O)O)cc21)C(=O)Nc1ccc([N+](=O)[O-])cc1` the figure was 200 to 1000 nM.
Regarding `Cc1csc(C2(NC(=O)c3ccc4c(C5CCCCC5)c(-c5ccoc5)n(CC(=O)N5CCOCC5)c4c3)CCC2)n1`, the IC50 (Table 4, class ranges) lay within 200 to 1000 nM.
Still for that read-out and setting: with `O=C(NC1(c2csc(-c3cccs3)n2)CCC1)c1ccc2c(C3CCCCC3)c(-c3ccoc3)n(CC(=O)N3CCC(N4CCCC4)CC3)c2c1` the figure was 200 to 1000 nM; with `CC(=O)NC(=O)c1ccc2c(C3CCCCC3)c(-c3ccoc3)n(CC(=O)N3CCOCC3)c2c1`, 200 to 1000 nM.
With `O=C(NS(=O)(=O)c1c(Cl)cccc1Cl)c1ccc2c(C3CCCCC3)c(-c3ccoc3)n(CC(=O)N3CCOCC3)c2c1`, for the setting “Table 2, HCV NS5B polymerase”, the IC50 was less than 200 nM.
Consider `Nc1nc(-c2ccc(NC(=O)C3(NC(=O)c4ccc5c(C6CCCCC6)c(-c6ccoc6)n(CC(=O)N6CCOCC6)c5c4)CCCNC3)cc2)cs1` (stereo not shown), for which the IC50 (Table 3, HCV NS5B polymerase) is less than 200 nM.
Same read-out and setting: with `O=C(O)/C=C/c1ccc(NC(=O)C2(NC(=O)c3ccc4c(C5CCCCC5)c(-c5ccoc5)n(CC(=O)N5CCOCC5)c4c3)CCC2)cc1` the figure was less than 200 nM.
Regarding `O=C(NC1CCCC1OCc1ccccc1)c1ccc2c(c1)c(C1CCCCC1)c(-c1ccoc1)n2CC(=O)N1CCC(N2CCCC2)CC1` (stereo not shown), the IC50 (Table 7, class ranges) was 1000 to 10000 nM.
`CC(=O)Nc1ccc(S(=O)(=O)NC(=O)c2ccc3c(C4CCCCC4)c(-c4ccoc4)n(CC(=O)N4CCOCC4)c3c2)cc1` came in with an IC50 (Table 2, HCV NS5B polymerase) of less than 200 nM.
On to `Cc1c(C(=O)O)ccc2c(C3CCCCC3)c(-c3ccoc3)n(CC(=O)N(C)C)c12`, for which, where the note is “Table 7, class ranges”, the IC50 is less than 200 nM.
